Results of unrelated studies side by side (data: NIAID ChemDB).

All rows: whole-cell or culture tests; organism: HIV-1; cell line: MT-4; method: p24; endpoint: EC95

Blank or dashed fields: not listed here. Neighbouring rows are from separate reports. ECn: concentration that inhibits the pathogen or its effect by n%.

| compound | strain | mutations | result |
|---|---|---|---|
| CC1c2nc(C(=O)NCc3ccc(F)cc3)c(O)c(=O)n2CCN1C | - | - | <1 µM |
| O=C1c2c(O)c(=O)n(C(C3CC3)C3CC3)c(=O)n2CCN1Cc1ccc(F)cc1 | - | - | <10 µM |
| CC(C)N1CCn2c(nc(C(=O)NCc3ccc(F)cc3)c(O)c2=O)C(N(C)C(=O)C(=O)N(C)C)C1 | - | - | <1 µM |
| O=C1c2c(O)c(=O)n(-c3ccc(N4CCCCC4)cc3)c(=O)n2CCN1Cc1ccc(F)cc1 | - | - | <10 µM |
| CC(C)[C@H](NC(=O)OCc1ccccn1)C(=O)N[C@@H](Cc1ccccc1)[C@@H](O)C[C@H](Cc1ccccc1)NC(=O)OCc1cccnc1 | NL4-3 | PR-L10R L63P | 0.8 µM |
| O=C(CSc1nnnn1-c1ccccc1Br)Nc1ccccc1[N+](=O)[O-] | - | - | <10 µM |
| N#Cc1cc(Cl)cc(Oc2cc(F)cc(OCc3[nH]nc4nc(N)ccc34)c2)c1 | - | - | <20 µM |
| CC(=O)c1ccc(NC(=O)CSc2nnnn2-c2c(C)cc(C)cc2C)cc1 | - | - | <10 µM |
| CN(C)C(=O)C(=O)N1CCn2c(nc(C(=O)NCc3ccc(F)cc3)c(O)c2=O)C(N(C)C(=O)C(=O)N(C)C)C1 | - | - | <1 µM |
| O=C(CCSc1nnnn1-c1cccc2ccccc12)Nc1ccccc1Cl | - | - | <10 µM |
| N#Cc1cc(C#N)cc(Oc2cc(Cl)cc(OCC(=O)Nc3ccc(S(N)(=O)=O)cc3Cl)c2)c1 | - | - | <20 µM |
| O=C1c2c(O)c(=O)n(Cc3nccc4ccccc34)c(=O)n2CCN1Cc1ccc(F)cc1 | - | - | <10 µM |
| N#Cc1cc(Cl)cc(Oc2cc(OCc3[nH]nc4nc(N5CCC(N)C5)ccc34)ccc2Cl)c1 | - | - | <20 µM |
| CC(C)n1c(=O)c(O)c2n(c1=O)CCN(Cc1ccc(F)cc1Cl)C2=O | - | - | <10 µM |
| CN1CCn2c(nc(C(=O)NCc3ccc(F)cc3)c(O)c2=O)C(NC(=O)C(=O)N(C)C)C1 | - | - | <1 µM |
| O=C1c2c(O)c(=O)n(CC(F)(F)F)c(=O)n2CCN1Cc1ccc(F)cc1 | - | - | <10 µM |
| NC(=O)c1ccccc1NC(=O)CSc1nnnn1-c1cccc2ccccc12 | - | - | <10 µM |
| CC1c2nc(C(=O)NCc3ccc(F)cc3)c(O)c(=O)n2CCN1C(=O)C(=O)N(C)C | - | - | <50 µM |
| N#Cc1cc(Cl)cc(Oc2cc(OCc3cn(-c4ccccc4)nn3)ccc2Cl)c1 | - | - | <20 µM |
| Cc1nc(CN2CCn3c(nc(C(=O)NCc4ccc(F)cc4)c(O)c3=O)C2(C)C)cs1 | - | - | <1 µM |
| COC(=O)c1ccc(NC(=O)CSc2nnnn2-c2c(C)cc(C)cc2C)c(C)c1 | - | - | <10 µM |
| CN(C)CC(=O)N1CCn2c(nc(C(=O)NCc3ccc(F)cc3)c(O)c2=O)C1(C)C | - | - | <1 µM |
| CN(CC(N)=O)c1ccc2c(COc3ccc(Cl)c(Oc4cc(Cl)cc(C#N)c4)c3)[nH]nc2n1 | - | - | <20 µM |
| CCN(CC)CCN1CCn2c(nc(C(=O)NCc3ccc(F)cc3)c(O)c2=O)C1(C)C | - | - | <1 µM |
| Cc1cc(C)c(-n2nnnc2OCC(=O)Nc2ccccc2[N+](=O)[O-])c(C)c1 | - | - | <10 µM |

For reference, 3 entries again:

| compound | strain | mutations | result |
|---|---|---|---|
| O=C1c2c(O)c(=O)n(Cc3nccc4ccccc34)c(=O)n2CCN1Cc1ccc(F)cc1 | - | - | <10 µM |
| CN(C)C(=O)C(=O)N1CCn2c(nc(C(=O)NCc3ccc(F)cc3)c(O)c2=O)C(N(C)C(=O)C(=O)N(C)C)C1 | - | - | <1 µM |
| Cc1nc(CN2CCn3c(nc(C(=O)NCc4ccc(F)cc4)c(O)c3=O)C2(C)C)cs1 | - | - | <1 µM |